## Sequence variants of PSTVd loop 15 after infection

Region: loop 15 of PSTVd (intermediate strain), upper and lower strand joined, each 5' to 3', the first 7 letters being the upper strand, closing pairs included. Wild type: GGAAACCGCUACUAC. Varied positions (N): GGAAACCGNNNNNNC.

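A pool of all variants was put on leaves of three Nicotiana benthamiana plants. Progeny were sequenced from the inoculated region (day 5), the margin of the inoculated leaf (day 10) and systemic leaves (day 12).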

Values are reads per thousand in the sample; higher means more abundant, 0 means not found.
Each value is the mean of three plants.
"Pool" is the share in the plasmid pool used as inoculum, on the same scale.
The inoculated region was read from the minus strand, the other sites from the plus strand.

GGAAACCGCAAACAC (pool 0.256) gave inoculated region 0.380; leaf margin 0.135; systemic leaves 0.0161. With GGAAACCGACCGCUC (pool 0.144) the assay gave inoculated region 0.154; leaf margin 0.0128; systemic leaves 0. GGAAACCGCGCGCGC (pool 0.208) gave inoculated region 0.104; leaf margin 0; systemic leaves 0. With GGAAACCGCGGUCGC (pool 0.256) the assay gave inoculated region 0.0470; leaf margin 0; systemic leaves 0. GGAAACCGUUUUUAC (pool 0.160) read inoculated region 0.343; leaf margin 0.136; systemic leaves 0.0434. GGAAACCGAUUCUAC (pool 0.144) gave inoculated region 0.296; leaf margin 0.0841; systemic leaves 0.0996. With GGAAACCGCUAAGUC (pool 0.240) the assay gave inoculated region 0.0760; leaf margin 0; systemic leaves 0. For GGAAACCGUCGGCAC (pool 0.256) the result was inoculated region 0.0930; leaf margin 0; systemic leaves 0. With GGAAACCGACAGCGC (pool 0.240) the assay gave inoculated region 0.107; leaf margin 0.0175; systemic leaves 0.

GGAAACCGCAAUUUC (pool 0.288) read inoculated region 0.422; leaf margin 0.0713; systemic leaves 0.0518. GGAAACCGGAUUGAC (pool 0.352) read inoculated region 0.0730; leaf margin 0; systemic leaves 0. For GGAAACCGCAGCAUC (pool 0.144) the result was inoculated region 0.118; leaf margin 0.00668; systemic leaves 0. With GGAAACCGUCCUAGC (pool 0.256) the assay gave inoculated region 0.215; leaf margin 0.0175; systemic leaves 0. With GGAAACCGUGCGUAC (pool 0.176) the assay gave inoculated region 0.268; leaf margin 0.122; systemic leaves 0.0230. GGAAACCGUGAAACC (pool 0.176) read inoculated region 0.102; leaf margin 0.0223; systemic leaves 0. With GGAAACCGUCACUCC (pool 0.272) the assay gave inoculated region 0.271; leaf margin 0.122; systemic leaves 0.0322. GGAAACCGCCUAAAC (pool 0.304) read inoculated region 0.126; leaf margin 0.00539; systemic leaves 0. GGAAACCGUGGGUCC (pool 0.208) read inoculated region 0.102; leaf margin 0.0187; systemic leaves 0.

For GGAAACCGGAAUGCC (pool 0.208) the result was inoculated region 0.0920; leaf margin 0.0121; systemic leaves 0. GGAAACCGUUCCGUC (pool 0.224) read inoculated region 0.113; leaf margin 0.0134; systemic leaves 0.00537. For GGAAACCGUCAUGAC (pool 0.224) the result was inoculated region 0.0963; leaf margin 0.0200; systemic leaves 0. GGAAACCGUGAUCAC (pool 0.208) read inoculated region 0.273; leaf margin 0.104; systemic leaves 0.0797. GGAAACCGACGCUCC (pool 0.272) read inoculated region 0.0759; leaf margin 0.00668; systemic leaves 0. GGAAACCGACUAUGC (pool 0.224) gave inoculated region 0.0958; leaf margin 0; systemic leaves 0. GGAAACCGGAACGGC (pool 0.256) gave inoculated region 0.0960; leaf margin 0.0316; systemic leaves 0. With GGAAACCGGCAAGAC (pool 0.192) the assay gave inoculated region 0.107; leaf margin 0.0134; systemic leaves 0.00537. GGAAACCGGUCACUC (pool 0.304) gave inoculated region 0.126; leaf margin 0.0162; systemic leaves 0.00537.

GGAAACCGGAGCACC (pool 0.112) read inoculated region 0.116; leaf margin 0.00539; systemic leaves 0. With GGAAACCGGGCACGC (pool 0.192) the assay gave inoculated region 0.0802; leaf margin 0.00668; systemic leaves 0. GGAAACCGGCCCGAC (pool 0.272) read inoculated region 0.0751; leaf margin 0.0121; systemic leaves 0. GGAAACCGCUGCCUC (pool 0.256) read inoculated region 0.113; leaf margin 0; systemic leaves 0.00537. GGAAACCGCGAGCUC (pool 0.304) read inoculated region 0.286; leaf margin 0.0860; systemic leaves 0.0107. GGAAACCGGUGCGCC (pool 0.192) read inoculated region 0.0928; leaf margin 0.0202; systemic leaves 0. For GGAAACCGCGGGCGC (pool 0.320) the result was inoculated region 0.0624; leaf margin 0.00539; systemic leaves 0. For GGAAACCGCUCCCUC (pool 0.144) the result was inoculated region 0.0739; leaf margin 0.0121; systemic leaves 0. With GGAAACCGGGAUCUC (pool 0.192) the assay gave inoculated region 0.0718; leaf margin 0.0148; systemic leaves 0.00537.

For GGAAACCGAGUGGCC (pool 0.320) the result was inoculated region 0.118; leaf margin 0.0236; systemic leaves 0.0183. GGAAACCGUUGUUCC (pool 0.176) read inoculated region 0.0640; leaf margin 0.0208; systemic leaves 0. GGAAACCGGGCGCUC (pool 0.160) read inoculated region 0.306; leaf margin 0.0121; systemic leaves 0.0107.

A selection of 3 entries from above:

- GGAAACCGGUGCGCC (pool 0.192) = inoculated region 0.0928; leaf margin 0.0202; systemic leaves 0
- GGAAACCGGCCCGAC (pool 0.272) = inoculated region 0.0751; leaf margin 0.0121; systemic leaves 0
- GGAAACCGCAGCAUC (pool 0.144) = inoculated region 0.118; leaf margin 0.00668; systemic leaves 0

With 43,870-66,106 reads a sample, very low values are single reads.
The authors trace changes outside the varied positions to PCR and sequencing errors or to mutation in the plant; presence does not show that a variant is infectious alone.
For reference, wild type rose from 33.9 per thousand in the pool to 202, 200, 159 (inoculated region), 724, 746, 710 (leaf margin) and 856, 883, 880 (systemic leaves).

Source: Wu et al. 2024 (doi:10.1371/journal.ppat.1012142), supplementary data.